A mixed list of measured activities; the numbers were collected in NIAID ChemDB.

All rows: tests in culture; organism: HIV-1; read by: luciferase / reporter gene; read-out: EC50

Neighbouring rows are from separate reports. Blank or dashed fields: not listed here. ECn: concentration that inhibits the pathogen or its effect by n%. Two numbers with a dash give a range or band.

smiles	conditions	cells	strain	result
COc1c(C(=O)C(=O)N2CCN(C(=O)c3ccccc3)CC2C)cnc2c1c(C)nn2C	-	HeLa	-	1–5 µM
CCCC(C(=O)O)c1c(C)nc2cc(F)c(F)cc2c1-c1ccc(C)cc1	-	C8166	-	<20 µM
COc1cccc2oc(C(=O)C(C#N)N3CCN(C(=O)c4ccccc4)C[C@H]3C)cc12	-	HeLa	-	>0.5 µM
O=C(NCc1ccc(F)cc1)c1nc2n(c(=O)c1O)CCOC21CCN(C(=O)OCc2ccccc2)CC1	-	MT-2	NL4-3	0.001–0.01 µM
CCCCCC1CN(C(=O)c2ccccc2)CCN1C(=O)C(=O)c1c[nH]c2cccc(F)c12	pseudotyped	HeLa	LAI	0.855 µM
Cc1ncnn1-c1cc(F)ccc1CNC(=O)c1nc2n(c(=O)c1O)CCOC21CCN(C(=O)OCc2ccccc2)CC1	-	MT-2	NL4-3	0.001–0.01 µM
CCCCCC1CN(C(=O)C(=O)c2c[nH]c3cccc(F)c23)CCN1C(=O)c1ccccc1	pseudotyped	HeLa	LAI	>5 µM
Cc1ccc(S(=O)(=O)N2CCC3(CC2)OCCn2c3nc(C(=O)NCc3ccc(F)cc3)c(O)c2=O)cc1	-	MT-2	NL4-3	0.001–0.01 µM
CC1CN(C(=O)c2ccccc2)CCN1C(=O)C(=O)c1ccc2cc(Br)ccc2n1	-	HeLa	-	<1 µM
CC1CN(C(=O)c2ccccc2)C(C)CN1C(=O)C(=O)c1c[nH]c2cccc(F)c12	pseudotyped	HeLa	LAI	0.0047 µM
C[C@@H]1CN(C(=O)c2ccccc2)CCN1C(=O)C(=O)c1c[nH]c2c(NC(=O)CO)cccc12	-	HeLa	-	<1 µM
COc1cccc2[nH]cc(C(=O)C(=O)N3CCN(C(=O)c4ccccc4)CC3)c12	pseudotyped	HeLa	LAI	0.72 µM
CNC(C(=O)O)C(O)C(=O)Nc1cccc2c(C(=O)C(=O)N3CCN(C(=O)c4ccccc4)C[C@H]3C)c[nH]c12	-	HeLa	-	<1 µM
COC(=O)N1CCC2(CC1)OCCn1c2nc(C(=O)NCc2ccc(F)cc2)c(O)c1=O	-	MT-2	NL4-3	0.001–0.01 µM
CCCC(C(=O)O)c1c(C)nc2ccc(Cl)cc2c1-c1ccc2ccccc2c1	-	C8166	-	<20 µM
Cc1nnc(C(=O)N2CCC3(C2)OCCn2c3nc(C(=O)NCc3ccc(F)cc3)c(O)c2=O)o1	-	MT-2	NL4-3	0.01–0.1 µM
COc1c(C(=O)C(=O)N2CCN(C(=O)c3ccccc3)CC2)cnc2c1c(C)nn2C	-	HeLa	-	1–5 µM
COC(C(=O)O)c1c(C)nc2ccccc2c1-c1ccc(Cl)cc1	-	C8166	-	<20 µM
O=C(C(=O)N1CCN(C(=O)c2ccccc2)CC1)c1ccc2cccnc2c1	-	HeLa	-	1–5 µM
C[C@@H]1CN(C(=O)c2ccccc2)CCN1C(=O)C(=O)c1c[nH]c2c(NC(=O)C[N+](C)(C)C)cccc12	-	HeLa	-	<1 µM
CC1CN(C(=O)c2ccccc2)CCN1C(=O)[C@H](O)c1ccc2ccccc2c1	-	HeLa	-	1–5 µM
Cc1ccc(-c2c(C(OC(C)C)C(=O)O)c(C)nc3ccc(Cl)cc23)cc1C	-	C8166	-	<20 µM
CC(C)(C)C1CN(C(=O)C(=O)c2c[nH]c3cccc(F)c23)CCN1C(=O)c1ccccc1	pseudotyped	HeLa	LAI	>5 µM
O=C(CC1CNc2cccc(F)c21)N1CCN(C(=O)c2ccccc2)CC1	-	HeLa	-	<1 µM
CC(C)CC1CN(C(=O)C(=O)c2c[nH]c3cccc(F)c23)CCN1C(=O)c1ccccc1	pseudotyped	HeLa	LAI	0.303 µM
COc1ccc(-c2c(C(OC(C)C)C(=O)O)c(C)nc3ccc(Cl)cc23)cc1C	-	C8166	-	<20 µM
CC(C)(C)C1CN(C(=O)c2ccccc2)CCN1C(=O)C(=O)c1c[nH]c2cccc(F)c12	pseudotyped	HeLa	LAI	>5 µM
Cc1ncn(-c2cc(F)ccc2CNC(=O)c2nc3n(c(=O)c2O)CCOC32CCN(C(=O)C(=O)N(C)C)CC2)n1	-	MT-2	NL4-3	≥0.1 µM
COC(C(=O)O)c1c(C)nc2ccc(Cl)cc2c1-c1ccc(C(F)(F)F)cc1	-	C8166	-	<20 µM
N#CC(=C1CCN(C(=O)C(=O)c2c[nH]c3c(NC(=O)NC(CCC(=O)O)C(=O)O)cccc23)CC1)c1ccccc1	-	HeLa	-	<1 µM
CC1CN(C(=O)C(=O)c2c[nH]c3cccc(F)c23)CC(C)N1C(=O)c1ccccc1	pseudotyped	HeLa	LAI	0.0484 µM
COC(=O)N1CCC2(CC1)OCCCn1c2nc(C(=O)NCc2ccc(F)cc2)c(O)c1=O	-	MT-2	NL4-3	0.001–0.01 µM
C[C@@H]1CN(C(=O)c2ccccc2)CCN1C(=O)C(=O)c1c[nH]c2cccc(F)c12	pseudotyped	HeLa	JR-FL	0.00042 µM
COC(=O)C(=O)N1CCC2(CC1)OCCn1c2nc(C(=O)NCc2ccc(F)cc2-n2ncnc2C)c(O)c1=O	-	MT-2	NL4-3	0.01–0.1 µM
N#CC(C(=O)c1ccc2ccccc2n1)N1CCN(C(=O)c2ccccc2)CC1	-	HeLa	-	<1 µM
CCCC(C(=O)O)c1c(C)nc2ccc(Cl)cc2c1-c1ccccc1	-	C8166	-	<20 µM
COc1ccc2cc(C(=O)C(C#N)N3CCN(C(=O)c4ccccc4)CC3C)[nH]c2c1	-	HeLa	-	<1 µM
C[C@H]1CN(C(=O)c2ccccc2)CCN1C(=O)C(=O)c1cc2ccccc2cn1	-	HeLa	-	<1 µM
CCc1ccc(-c2c(C(OC(C(F)(F)F)C(F)(F)F)C(=O)O)c(C)nc3ccc(Cl)cc23)cc1	-	C8166	-	<20 µM
C[C@@H]1CN(C(=O)c2ccccc2)CCN1C(C#N)C(=O)c1ccc2cnccc2n1	-	HeLa	-	<1 µM
C[C@@H]1CN(C(=O)c2ccccc2)CCN1C(=O)C(=O)c1ccc2[nH]cc(C#N)c2c1	-	HeLa	-	<1 µM
CC1CN(C(=O)c2ccccc2)CCN1C(=O)Cc1cccc2ccccc12	-	HeLa	-	1–5 µM
C[C@@H]1CN(C(=O)c2ccccc2)CCN1C(=O)C(=O)c1c[nH]c2c(NC(=O)C(O)C(N)C(=O)O)cccc12	-	HeLa	-	<1 µM
Cc1ccc(S(=O)(=O)N2CCC3(CC2)OCCn2c3nc(C(=O)NC(C)c3ccc(F)cc3)c(O)c2=O)cc1	-	MT-2	NL4-3	0.01–0.1 µM
O=C(C(=O)N1CCN(C(=O)c2ccccc2)CC1)c1cccc2ccccc12	-	HeLa	-	<1 µM

A second listing of 6 rows from above:

smiles,conditions,cells,strain,result
C[C@@H]1CN(C(=O)c2ccccc2)CCN1C(=O)C(=O)c1c[nH]c2c(NC(=O)CO)cccc12,-,HeLa,-,<1 µM
COC(=O)C(=O)N1CCC2(CC1)OCCn1c2nc(C(=O)NCc2ccc(F)cc2-n2ncnc2C)c(O)c1=O,-,MT-2,NL4-3,0.01–0.1 µM
N#CC(C(=O)c1ccc2ccccc2n1)N1CCN(C(=O)c2ccccc2)CC1,-,HeLa,-,<1 µM
COc1cccc2oc(C(=O)C(C#N)N3CCN(C(=O)c4ccccc4)C[C@H]3C)cc12,-,HeLa,-,>0.5 µM
Cc1ncnn1-c1cc(F)ccc1CNC(=O)c1nc2n(c(=O)c1O)CCOC21CCN(C(=O)OCc2ccccc2)CC1,-,MT-2,NL4-3,0.001–0.01 µM
C[C@@H]1CN(C(=O)c2ccccc2)CCN1C(=O)C(=O)c1ccc2[nH]cc(C#N)c2c1,-,HeLa,-,<1 µM